In PMC4707532 one finds Kd data, which are given here for one substance.

This test has as its target Human TLR-2 (human) (UniProt O60603). Nature of the test: SPR; Biacore X100; TLR immobilised on CM5 chip by amine coupling (300-500 RU); lubricin injected at at least 5 concentrations, 0.576–420 μg/mL, 30 μL/min, contact 1 min, 25 °C; PBS with 0.01% (v/v) Tween 20; regeneration 1 M NaCl. For orientation: Surface plasmon resonance follows binding to a sensor surface in real time, without labels.

For orientation: Kd means the constant that tells how readily two partners part at equilibrium. Higher therefore signals weaker binding.

With “Full length recombinant human lubricin protein (rhPRG4) (from UniProt Q92954 25-1404) (natural protein; other documents disagree on this pair)”, the Kd was 330 nM.
